Compound potency records, mixed from different reports. Data source: NIAID ChemDB in PubChem.

All rows: target-level tests; species: HIV-1; protein: Reverse transcriptase; read-out: IC50

Neighbouring rows are from separate reports.

structure | strain or isolate | changes | method | result
CC(C)(C)c1ccc(-n2nnnc2SCC(=O)Nc2ccc(S(=O)(=O)NCCc3ccccc3)cc2Cl)c(Cl)c1 |  | RT-K103 Y181C | PicoGreen / fluorescence | <1 µM
O=C1OCC2OC(O)C3OC(=O)c4cc(O)c(O)c(O)c4-c4c(cc(O)c(O)c4O)C(=O)OC3C2OC(=O)c2cc(O)c(O)c(O)c2-c2c1cc(O)c(O)c2O |  |  | nucleotide incorporation | >20 µg/mL
CC(C)(C#Cc1ccc(NC(=O)CSc2nnnn2-c2ccc(C3CC3)cc2Cl)c(Cl)c1F)OCCN1CCNCC1 |  | RT-K103 Y181C | PicoGreen / fluorescence | <1 µM
CCN1c2ncc(CCOc3ccc(CC(=O)O)c4c3CCCC4)cc2C(=O)N(C)c2ccc(F)nc21 | WT |  | nucleotide incorporation / radiometric | <0.1 µM
CC(C)(C)c1ccc(-n2nnnc2SCC(=O)Nc2ccc(C#CCCC(=O)O)cc2Cl)c(Cl)c1 | WT |  | PicoGreen / fluorescence | <1 µM
CCN1c2ncc(CCOc3ccc(-c4cc(C(=O)O)ccc4F)cc3C)cc2C(=O)N(C)c2cccnc21 | IIIB | RT-K103N Y181C | nucleotide incorporation / radiometric | 0.05–0.1 µM
COc1cc2c(cc1N)CN(c1nn3c(C4CC4)nnc3c3ccccc13)CC2 | 98US_MSC5016 |  | RT activity / fluorescence | 4.33 µM
CC(C)(C#Cc1ccc(NC(=O)CSc2nnnn2-c2cc(C(C)(C)C)ccc2Cl)c(Cl)c1)NC(=O)CN=c1ccn(O)cc1 | WT |  | PicoGreen / fluorescence | <1 µM
CC1(C)CC[C@]2(C(=O)O)CC[C@]3(C)C(=CC[C@@H]4[C@@]5(C)C[C@@H](O)[C@@H]6OC(=O)c7cc(O)c(O)c(O)c7-c7c(cc(O)c(O)c7O)C(=O)OC[C@@]6(CO)[C@@H]5CC[C@]43C)[C@@H]2C1 |  |  | nucleotide incorporation | >20 µg/mL
O=C(CSc1nnc(Br)n1-c1ccc(C2CC2)c2ccccc12)Nc1ccc(C(=O)O)cc1Cl |  | RT-Y188L | nucleotide incorporation / radiometric | >0.1 µM
Cc1nnc2c3ccccc3c(N3CCc4ccc(C(=O)O)cc4C3)nn12 | 98US_MSC5016 |  | RT activity / fluorescence | 25.9 µM
O=C(O[C@@H]1O[C@@H]2COC(=O)c3cc(O)c(O)c(O)c3-c3c(cc(O)c(O)c3O)C(=O)O[C@H]2[C@@H]2OC(=O)c3cc(O)c(O)c(O)c3-c3c(cc(O)c(O)c3O)C(=O)O[C@@H]12)c1cc(O)c(O)c(Oc2c(O)c(O)c(O)c3c2C(=O)O[C@H]2[C@@H]4OC(=O)c5cc(O)c(O)c(O)c5-c5c(cc(O)c(O)c5O)C(=O)O[C@H]4[C@@H](OC(=O)c4cc(O)c(O)c(O)c4)O[C@@H]2COC(=O)c2cc(O)c(O)c(O)c2-3)c1 |  |  | nucleotide incorporation | >20 µg/mL
CC(C)=CCN1Cc2cccc3[nH]c(=S)n(c23)C[C@@H]1C |  | RT-Y181I | nucleotide incorporation | 60.3 µM
CN1C(=O)c2cccnc2N(C)c2nc(-c3ccc[nH]3)ccc21 | WT |  | nucleotide incorporation / radiometric | <1 µM
Cc1cc(C2CC2)cc(Cl)c1-n1c(Br)nnc1SCC(=O)Nc1ccc(C(=O)O)cc1Cl |  | RT-Y181C | nucleotide incorporation / radiometric | <0.05 µM
COC(=O)Cc1ccc(-c2ccc(NC(=O)CSc3nnnn3-c3ccc(C)cc3Cl)c(Cl)c2)cc1 | WT |  | PicoGreen / fluorescence | <1 µM
CCN1c2ncccc2C(=O)N(C)c2ccc(-c3c[nH]c(C(C)=O)c3)nc21 |  | RT-Y188L | nucleotide incorporation / radiometric | >1 µM
Cc1cc(C2CC2)c2ccccc2c1-n1c(Br)nnc1SCC(=O)Nc1ccc(C(=O)O)cc1Cl |  | RT-Y188L | nucleotide incorporation / radiometric | >0.1 µM
CC(C)(C#Cc1ccc(NC(=O)CSc2nnnn2-c2ccc(C3CC3)cc2Cl)c(Cl)c1)NC(=O)c1cnccn1 |  | RT-K103 Y181C | PicoGreen / fluorescence | <1 µM
CCc1cc(C2CC2)ccc1-n1c(Br)nnc1SCC(=O)Nc1ccc(C(=O)O)cc1Cl |  | RT-Y188L | nucleotide incorporation / radiometric | >0.1 µM
CCS(=O)(=O)NC(=O)C(C)(C)C#Cc1ccc(NC(=O)CSc2nnnn2-c2ccc(C3CC3)cc2Cl)c(Cl)c1 |  | RT-K103 Y181C | PicoGreen / fluorescence | <1 µM
COP(=O)(c1cc(C)cc(CCC#N)c1)c1c(C(N)=O)[nH]c2ccc(Cl)c(F)c12 |  | Y181C | RT activity | 0.526 µM
CN1CCN(CC#Cc2ccc(NC(=O)CSc3nnnn3-c3ccc(C(C)(C)C)cc3Cl)c(Cl)c2)CC1 |  | RT-K103 Y181C | PicoGreen / fluorescence | <1 µM
O=[N+]([O-])c1ccc2c(c1)CN(c1nn3c(C(F)F)nnc3c3ccccc13)CC2 | 98US_MSC5016 |  | RT activity / fluorescence | 7.02 µM
O=C(CSc1nnc(Br)n1-c1c(Cl)cc(C2CCC2)c2ccccc12)Nc1ccc(C(=O)O)cc1Cl |  |  | nucleotide incorporation / radiometric | <0.05 µM
N#Cc1cc(Cl)cc(Oc2cc(Cl)cc(OCC(=O)Nc3ccc(C#N)cc3Cl)c2)c1 |  |  | nucleotide incorporation / radiometric | <20 µM
CC(C)(C#Cc1ccc(NC(=O)CSc2nnnn2-c2ccc(C3CC3)cc2Cl)c(Cl)c1F)OCCOc1ccc[n+]([O-])c1 |  | RT-K103 Y181C | PicoGreen / fluorescence | <1 µM
CCN1c2ncc(CCOc3ccc(-c4cc(C(=O)O)on4)cc3)cc2C(=O)N(C)c2cccnc21 | IIIB |  | nucleotide incorporation / radiometric | <0.05 µM
CCN1c2ncccc2C(=O)N(C)c2ccc(-c3c[nH]c4ccccc34)nc21 |  | RT-Y188L | nucleotide incorporation / radiometric | <1 µM
CCN1c2ncc(CCOc3cccc4c3ccc[n+]4[O-])cc2C(=O)Nc2c(C)cc(Cl)nc21 |  | RT-K103N V108I | nucleotide incorporation / radiometric | 0.056 µM
O=C(COc1ccc(NC(=O)CSc2nnnn2-c2ccc(C3CC3)cc2Cl)c(Cl)c1)NCCc1cccnc1 |  | RT-K103 Y181C | PicoGreen / fluorescence | <1 µM
N#Cc1cccc(Oc2cc(Cl)cc(OCC(=O)Nc3ccc(S(N)(=O)=O)cc3Cl)c2)c1 |  |  | nucleotide incorporation / radiometric | <20 µM
Cc1ccc(-n2c(SCC(=O)Nc3ccc(C(=O)O)cc3Cl)nnc2C(F)F)c2c1CCCC2 |  |  | nucleotide incorporation / radiometric | <0.05 µM
Cc1cc(-c2ccc(CC(=O)O)cc2)ccc1OCCc1cnc2c(c1)C(=O)N(C)c1cccnc1N2 | IIIB |  | nucleotide incorporation / radiometric | <0.05 µM
O=C1O[C@H]2[C@@H]3OC(=O)c4cc(O)c(O)c(O)c4-c4c(cc(O)c(O)c4O)C(=O)OC[C@H]2O[C@@H](OC(=O)c2cc(O)c(O)c(O)c2)[C@@H]3OC(=O)c2cc(O)c(O)c3c2[C@@H]2C1=CC(=O)[C@](O)(O3)C2(O)O |  |  | nucleotide incorporation | >20 µg/mL
CCc1cc(CCc2nc3ccccc3o2)c(=O)[nH]c1C |  |  | nucleotide incorporation | 0.039 µM
CC(C)(C#Cc1ccc(NC(=O)CSc2nnnn2-c2ccc(C3CC3)cc2Cl)c(Cl)c1)OCCN | WT |  | PicoGreen / fluorescence | <1 µM
CCN1c2ncccc2C(=O)N(C)c2ccc(-c3cc[nH]c3C#N)nc21 | WT |  | nucleotide incorporation / radiometric | <1 µM
CC(C)(C#Cc1ccc(NC(=O)CSc2nnnn2-c2ccc(C3CC3)cc2Cl)c(Cl)c1)OCCNC1CCC1 | WT |  | PicoGreen / fluorescence | <1 µM
Cc1nnc2n1CCN(c1nn3c(C4CC4)nnc3c3ccccc13)C2 | KER2008 |  | RT activity / fluorescence | >100 µM
Cc1nnc(SCC(=O)Nc2ccc(-c3ccc(OCCN4CCCC4)cc3)cc2Cl)n1-c1ccc(C2CC2)cc1Cl |  | RT-K103 Y181C | PicoGreen / fluorescence | <1 µM
O=C(OC[C@H]1O[C@@H](OC(=O)c2cc(O)c(O)c(O)c2)[C@H](OC(=O)c2cc(O)c(O)c(O)c2)[C@@H](OC(=O)c2cc(O)c(O)c(O)c2)[C@@H]1O)c1cc(O)c(O)c(O)c1 |  |  | nucleotide incorporation | >20 µg/mL
CCN1c2ncc(CCOc3ccc(C(=O)O)c4c3CCCC4)cc2C(=O)N(C)c2ccc(Cl)nc21 |  | RT-V106A | nucleotide incorporation / radiometric | >1 µM
CC(C)(C)c1ccc(-n2nnnc2SCC(=O)Nc2ccc(-c3ccc(OCC(=O)O)cc3F)cc2Cl)c(Cl)c1 | WT |  | PicoGreen / fluorescence | <1 µM
CCN1c2ncccc2C(=O)N(C)c2ccc(-c3cnn(C(C)=O)c3)nc21 | WT |  | nucleotide incorporation / radiometric | <1 µM
Cc1cc(OCC(=O)O)ccc1-c1ccc(NC(=O)CSc2nnnn2-c2ccc(C(C)(C)C)cc2Cl)c(Cl)c1 | WT |  | PicoGreen / fluorescence | <1 µM
CCN1c2ncccc2C(=O)N(C)c2ccc(-c3ccn(C)c3)nc21 |  | RT-Y181C | nucleotide incorporation / radiometric | >1 µM
CC(C)(C#Cc1ccc(NC(=O)CSc2nnnn2-c2cc(C(F)(F)F)ccc2Cl)c(Cl)c1)NC(=O)C1CC1 |  | RT-K103 Y181C | PicoGreen / fluorescence | <1 µM
N#Cc1cc(Cl)cc(Oc2cc(OCc3nc(-c4ccccc4)no3)ccc2Cl)c1 |  |  | nucleotide incorporation / radiometric | <20 µM
CCN1c2ncccc2C(=O)N(C)c2ccc(-c3cn[nH]c3)nc21 |  | RT-Y188L | nucleotide incorporation / radiometric | <1 µM
CN(C)c1ccc(NC(=O)c2ccc(NC(=O)CSc3nnnn3-c3ccc(C(C)(C)C)cc3Cl)c(Cl)c2)cc1 | WT |  | PicoGreen / fluorescence | <1 µM
CCN1c2ncccc2C(=O)N(C)c2ccc(-c3c[nH]c(C(=O)O)c3)nc21 |  | RT-Y181C | nucleotide incorporation / radiometric | >1 µM
CCOC(=O)[C@H](Cc1ccc(O)cc1)NC(=O)c1ccc(NC(=O)CSc2nnc(Br)n2-c2ccc(C3CC3)c3ccccc23)c(Cl)c1 |  | RT-Y188L | nucleotide incorporation / radiometric | 0.05–0.1 µM
N#Cc1cc(Cl)cc(Oc2cc(OCc3[nH]nc4nc(N5CCOCC5)ccc34)ccc2Cl)c1 |  |  | nucleotide incorporation / radiometric | <20 µM
CC(C)(C#Cc1ccc(NC(=O)CSc2nnnn2-c2cc(C(C)(C)C)ccc2Cl)c(Cl)c1)NC(=O)CN1CCC(C(=O)O)CC1 | WT |  | PicoGreen / fluorescence | <1 µM
Nc1cc2c(c(N3CCCC3)c1)CCN(c1nn3c(C4CC4)nnc3c3ccccc13)C2 | KER2008 |  | RT activity / fluorescence | 18.1 µM
CCOC(=O)CCNC(=O)c1ccc(NC(=O)CSc2nnc(Br)n2-c2ccc(C3CC3)c3ccccc23)c(Cl)c1 |  | RT-Y181C | nucleotide incorporation / radiometric | <0.05 µM
O=C(O[C@@H]1O[C@@H]2COC(=O)c3cc(O)c(O)c(O)c3-c3c(cc(O)c(O)c3O)C(=O)O[C@H]2[C@H](O)[C@H]1O)c1cc(O)c(O)c(O)c1 |  |  | nucleotide incorporation | <20 µg/mL
CCN1c2ncc(CCOc3ccc(NS(=O)(=O)C(F)(F)F)c4ccccc34)cc2C(=O)N(C)c2ccc(F)nc21 |  | RT-K103N Y181C | nucleotide incorporation / radiometric | 0.1–1 µM
O=C(OC[C@H]1O[C@@H](OC(=O)c2cc(O)c(O)c(O)c2)[C@H](OC(=O)c2cc(O)c(O)c(O)c2)[C@@H](O)[C@@H]1O)c1cc(O)c(O)c(O)c1 |  |  | nucleotide incorporation | >20 µg/mL
CCOC(=O)c1csc(-c2ccc(OCCc3cnc4c(c3)C(=O)N(C)c3cccnc3N4CC)c(C)c2)n1 | IIIB | RT-K103N Y181C | nucleotide incorporation / radiometric | >0.1 µM
CCN1c2ncc(CCOc3ccc(C(=O)O)c4c3CCN(C(=O)OC(C)(C)C)C4)cc2C(=O)N(C)c2cccnc21 |  | RT-V106A | nucleotide incorporation / radiometric | >1 µM
Cc1ccc(-c2ncsc2SCC(=O)Nc2ccc(-c3ccc(CC(=O)O)cc3)cc2Cl)c(Cl)c1 |  | RT-K103 Y181C | PicoGreen / fluorescence | <1 µM
Cc1nnc2ccc(N3CCc4ccccc4C3)nn12 | KER2008 |  | RT activity / fluorescence | 9.82 µM

Repeating the final 8 entries:

structure	strain or isolate	changes	method	result
CCOC(=O)CCNC(=O)c1ccc(NC(=O)CSc2nnc(Br)n2-c2ccc(C3CC3)c3ccccc23)c(Cl)c1		RT-Y181C	nucleotide incorporation / radiometric	<0.05 µM
O=C(O[C@@H]1O[C@@H]2COC(=O)c3cc(O)c(O)c(O)c3-c3c(cc(O)c(O)c3O)C(=O)O[C@H]2[C@H](O)[C@H]1O)c1cc(O)c(O)c(O)c1			nucleotide incorporation	<20 µg/mL
CCN1c2ncc(CCOc3ccc(NS(=O)(=O)C(F)(F)F)c4ccccc34)cc2C(=O)N(C)c2ccc(F)nc21		RT-K103N Y181C	nucleotide incorporation / radiometric	0.1–1 µM
O=C(OC[C@H]1O[C@@H](OC(=O)c2cc(O)c(O)c(O)c2)[C@H](OC(=O)c2cc(O)c(O)c(O)c2)[C@@H](O)[C@@H]1O)c1cc(O)c(O)c(O)c1			nucleotide incorporation	>20 µg/mL
CCOC(=O)c1csc(-c2ccc(OCCc3cnc4c(c3)C(=O)N(C)c3cccnc3N4CC)c(C)c2)n1	IIIB	RT-K103N Y181C	nucleotide incorporation / radiometric	>0.1 µM
CCN1c2ncc(CCOc3ccc(C(=O)O)c4c3CCN(C(=O)OC(C)(C)C)C4)cc2C(=O)N(C)c2cccnc21		RT-V106A	nucleotide incorporation / radiometric	>1 µM
Cc1ccc(-c2ncsc2SCC(=O)Nc2ccc(-c3ccc(CC(=O)O)cc3)cc2Cl)c(Cl)c1		RT-K103 Y181C	PicoGreen / fluorescence	<1 µM
Cc1nnc2ccc(N3CCc4ccccc4C3)nn12	KER2008		RT activity / fluorescence	9.82 µM

An empty or dashed field is not shown. a–b is a range or a potency band. ICn: concentration for n% inhibition.